Article PMC6006364, “D-Cateslytin: a new antifungal agent for the treatment of oral Candida albicans associated infections” (Scientific Reports, 2018)

Test system: Candida albicans
Assay: Time-lapse video microscopy of Candida albicans with rhodamine-labelled peptides
Type: cell-based
Details: 10 × MIC (55 μg/mL Rho-D-Ctl, 79 μg/mL Rho-L-Ctl), 30 min loading then wash; 34/34 L-Ctl and 23/23 D-Ctl treated colonies
Method: Diluted precultures (1/1000) of Candida albicans were incubated for 1 hour at 37 °C without agitation in glass bottom μ-Dish^35mm,high (Ibidi) previously treated with poly-L-lysine. […] To perform time-lapse video microscopy, the peptides were removed and replaced by Sabouraud medium. Yeasts were then plated at 37 °C, 5% CO2, on a Nikon Eclipse Ti inverted microscope equipped with an Andor Zyla sCMOS camera and a 60X objective. To prevent evaporation, a layer of mineral oil (Sigma) was added on top of the media prior imaging. Images (fluorescence and phase contrast) were captured every 10 min for 20 hours using Nikon NIS-Elements AR software, and processed with ImageJ.

| Substance | intensity of fluorescence in C. albicans over a period of 17 hours |
| --- | --- |
| Rho-L-Ctl: L-Ctl with a rhodamine moiety on the N-terminal end, used for video microscopy (RSMRLSFRARGYGFR; N-terminal rhodamine) | decreases |
| Rho-D-Ctl: D-Ctl with a rhodamine moiety on the N-terminal end, used for video microscopy (RSMRLSFRARGYGFR; D-amino acids; N-terminal rhodamine) | stays stable |
